Measurements published in article PMC9949255.

Target: recombinant C.1086 gp140 K160N (HIV-1 strain C.1086)
Experiment: ELISA; C.1086gp140K160N coated on the wells; incubated with PBS or bacterial lectin (50 μg/mL); soluble CD4 titrated 1:3 from 10 μg/mL, 1 hr at 37°C; detected with anti-human CD4 biotin (OKT4) and streptavidin AP

soluble CD4 (from UniProt P01730 26-396) (receptor)
EC50: 1.6 nM
